Pooled drug test results. Numbers come from NIAID ChemDB, via PubChem.

All rows: cytotoxicity tests; cell line: HepG2; read-out: CC50

Neighbouring rows are from separate reports. CCn is the concentration with n% toxicity to the cells. An empty or dashed field is not shown.

smiles | method | result
Cc1cc(NC(=O)c2c(C)c(C(=O)C(=O)NC3(C)CC(O)C3)n(C)c2C(C)C)ccc1F | MTT | >30 µM
CC(C)N(Cc1cccc(OCCCCCC(=O)OC(=O)O)c1)C(=O)c1ccc(-c2cccc3ccccc23)cc1 | - | >20 µM
Cc1ccc2cc(S(=O)(=O)c3ccccc3)c3nc(C)sc3c2c1 | MTT | 26 µM
CC(C)C[C@@H]1NC(=O)[C@H](Cc2c[nH]c3ccccc23)NC(=O)[C@H](CCCCN)NC(=O)[C@H](CC(N)=O)NC(=O)[C@H](C(C)C)NC(=O)[C@@H](CC(C)C)NC1=O | MTT | >30 µM
CNC(=O)C1CCC(n2c(NC(C)C)nc3c(c2=O)C[C@@H](C)N(C(=O)c2cc(F)c(Cl)c(C(F)(F)F)c2)C3)CC1 | luminescence | >50 µM
COc1ccc(F)cc1CNCCCNc1ccnc2cc(CCC(C)C)ccc12 | fluorescence | 0.89 µM
CCOC(=O)CC(=O)NCC(OCC)(OCC)c1ccc2c(c1)OCO2 | - | >20 µM
Cc1nc2c(S(=O)(=O)c3ccccc3)cc3cc(F)ccc3c2s1 | MTT | >125 µM
Cc1ccc(SCC(=O)Nc2ccc(Br)c(C)c2)cc1 | luminescence | >100 µM
Clc1ccc(Oc2ccc3c(NCCCNCc4ccco4)ccnc3c2)cc1 | fluorescence | 7.8 µM
CC(C)Nc1nc2c(c(=O)n1-c1cc3n(n1)CCNC3=O)C[C@@H](C)N(C(=O)c1ccc(Cl)c(C(F)(F)F)c1)C2 | luminescence | >50 µM
CCCN(Cc1ccccc1OCC(=O)O)C(=O)c1ccc(-c2ccc3c(c2)OCO3)cc1 | - | >20 µM
CNC(=O)c1ccc(-n2c([C@H](O)C(C)C)nc3c(c2=O)C[C@@H](C)N(C(=O)c2ccc(Cl)c(C(F)(F)F)c2)C3)cc1 | luminescence | >50 µM
CCC(CC)c1ccc2c(NCCCNCc3cccc(OC)c3O)ccnc2c1 | fluorescence | 0.41 µM
CC(=O)N1CC[C@@H](NC(=O)C(=O)c2c(C)c(C(=O)Nc3ccc(F)c(C)c3)c(C)n2C)C(C)(C)C1 | MTT | >30 µM
N#Cc1ccc(Cc2ccc3c(NCCCNCc4ccco4)ccnc3c2)cc1 | fluorescence | 7.91 µM
CC(C)C[C@@H]1NC(=O)[C@H](Cc2c[nH]c3ccccc23)NC(=O)CNC(=O)[C@H](CO)NC(=O)[C@H](C(C)C)NC(=O)[C@@H](CC(C)C)NC1=O | MTT | >30 µM
CCCOc1ccc(C(=O)Nc2sc(C)c(C)c2C(N)=O)cc1 | luminescence | >100 µM
Cc1cc(NC(=O)c2c(C(C)C)c(C(=O)C(=O)NC3CCC(O)CC3)n(C)c2C)ccc1F | MTT | >30 µM
Cc1nc2c(S(=O)(=O)c3ccccc3)cc3ccccc3c2s1 | MTT | >125 µM
CC(C)C[C@@H]1NC(=O)[C@H](Cc2ccc(O)cc2)NC(=O)[C@@H](CCCCN)NC(=O)[C@H](CC(N)=O)NC(=O)[C@H](C(C)C)NC(=O)[C@@H](CC(C)C)NC1=O | MTT | >30 µM
CNC(=O)c1cc(-n2c(NC(C)C)nc3c(c2=O)C[C@@H](C)N(C(=O)c2ccc(Cl)c(C(F)(F)F)c2)C3)nn1C(C)C | luminescence | >50 µM
Cc1cc(NC(=O)c2c(C)c(C(=O)C(=O)NC3(C)CCN(C(=O)N4CCOCC4)CC3)n(C)c2C)ccc1F | MTT | >30 µM
CC(C)N(Cc1cccc(OCCCCCC(=O)OC(=O)O)c1)C(=O)c1ccc(-c2cccc(F)c2)cc1 | - | >20 µM
CNC(=O)c1nc(-n2c(NC(C)C)nc3c(c2=O)C[C@@H](C)N(C(=O)c2ccc(Cl)c(C(F)(F)F)c2)C3)cn1C | luminescence | >50 µM
Cc1nc2c(S(=O)(=O)c3ccc(Cl)cc3)cc3cc(F)ccc3c2s1 | MTT | >31.2 µM
COc1ccc(CCNC(=O)CCCCC(C)=O)cc1OC | - | >20 µM
Fc1ccc(Cc2ccc3c(NCCCNCc4ccco4)ccnc3c2)c(Cl)c1 | fluorescence | 5.73 µM
Cc1cc(NC(=O)c2c(C)c(C(=O)C(=O)NC3(CO)CCN(S(C)(=O)=O)CC3)n(C)c2C)ccc1F | MTT | >30 µM
C#CCCC(=O)CCCc1ccc(OC)c(OC)c1 | - | <7.5 µM
O=C(COc1ccc(Br)cc1)N1CCN(c2ccccc2F)CC1 | luminescence | 57 µM
c1ccc(CCc2ccc3c(NCCCNCc4ccco4)ccnc3c2)cc1 | fluorescence | 16 µM
CC(C)C[C@@H]1NC(=O)[C@H](Cc2c[nH]c3ccccc23)NC(=O)[C@@H](CCCCN)NC(=O)[C@H](CC(C)C)NC(=O)[C@H](C(C)C)NC(=O)[C@@H](CC(C)C)NC1=O | MTT | >30 µM
CCCN(Cc1cccc(OCCCCCC(=O)O)c1)C(=O)c1ccc(-c2ccc3c(c2)OCO3)cc1 | - | >20 µM
CCC1(NC(=O)C(=O)c2c(C)c(C(=O)Nc3ccc(F)c(C)c3)c(C)n2C)CCN(C(=O)c2cn(C)nc2C(F)F)CC1 | MTT | >30 µM
Cc1c(Cc2ccccc2)sc(NC(=O)c2ccccc2Cl)c1C(N)=O | luminescence | >100 µM
Cc1cc(NC(=O)c2c(C(C)C)c(C(=O)C(=O)N[C@H](C)C(F)(F)F)n(C)c2C)ccc1F | MTT | >30 µM
CCOC(=O)c1nnn(-c2nc(N3CCCC3)nc(N3CCCC3)n2)c1-c1ccccc1 | luminescence | >50 µM
CC(C)C[C@@H]1NC(=O)[C@H](Cc2c[nH]c3ccccc23)NC(=O)CNC(=O)[C@H](CC(N)=O)NC(=O)[C@H]([C@@H](C)O)NC(=O)[C@@H](CC(C)C)NC1=O | MTT | >30 µM
Cn1nc(C2CC2)cc1C(=O)Nc1ccc(I)cc1 | luminescence | >100 µM
CCOC(=O)COc1ccc(CO)cc1 | - | >20 µM
COc1cccc(CNCCCNc2ccnc3cc(Cc4cc(C)cc(C)c4)ccc23)c1O | fluorescence | 2.68 µM

4 of the rows above, restated:

smiles,method,result
CNC(=O)c1nc(-n2c(NC(C)C)nc3c(c2=O)C[C@@H](C)N(C(=O)c2ccc(Cl)c(C(F)(F)F)c2)C3)cn1C,luminescence,>50 µM
Cc1cc(NC(=O)c2c(C)c(C(=O)C(=O)NC3(CO)CCN(S(C)(=O)=O)CC3)n(C)c2C)ccc1F,MTT,>30 µM
CCCOc1ccc(C(=O)Nc2sc(C)c(C)c2C(N)=O)cc1,luminescence,>100 µM
Cc1nc2c(S(=O)(=O)c3ccccc3)cc3cc(F)ccc3c2s1,MTT,>125 µM